Pooled drug test results. Numbers come from NIAID ChemDB, via PubChem.

Common to all: target-level tests; species: HIV-1; target: Protease; method: HPLC; read-out: IC50

Blank or dashed fields: not listed here.

SMILES | setting | result
Cn1c2c(O)cccc2c(=O)c2c(O)cc3c(c21)C=CC(C)(C)O3 |  | 93.1 µM
C=C1C[C@]2(C)C(C/C(=C\O)C3[C@@H]([C@@]4(C)CCCC(C)(C)O4)CC[C@]32C)[C@@]2(C)C/C(=C(/O)C(=O)OC)C(C)(C)C12 |  | >198 µM
CC(C)(C)OC(=O)N[C@@H](Cc1ccccc1)[C@@H](O)C[N+](C)(Cc1ccccc1)/N=C(\[O-])c1cccc(N)c1 |  | 2.4 µM
Cc1ccc(S(=O)(=O)NC(N)=NCCC[C@H](NC(=O)OCC2c3ccccc3-c3ccccc32)C(=O)OCc2ccccc2)cc1 |  | 60 µM
COC(=O)[C@]12CCC(C)(C)CC1C1=CCC3[C@@]4(C)CC[C@H](NC(=O)CCCCC(=O)O)C(C)(C)C4CC[C@@]3(C)[C@]1(C)CC2 |  | 3 µM
Cc1c(O)cccc1C(=O)N(O)[C@@H](Cc1ccccc1)C(=O)N1CCC[C@@H]1C(=O)NC(C)(C)C |  | 1.02 µM
CC1(C)CCC[C@](C)([C@H]2CC[C@]3(C)C2[C@H](O)CC2[C@@]4(C)CC[C@H](O)C(C)(C)C4/C(=C/O)C[C@]23C)O1 |  | >209.9 µM
CC(C)/C([O-])=N/[N+](C)(Cc1ccccc1)C[C@H](O)[C@H](Cc1ccccc1)NC(=O)OC(C)(C)C |  | 2.5 µM
COC(=O)N[C@H](C(=O)N[C@@H](C)CCC[C@@H](CO)N(C(C)C)S(=O)(=O)c1ccc(N)cc1)C(c1ccccc1)c1ccccc1 |  | 0.000132 µM
C[N+](Cc1ccccc1)(C[C@H](O)[C@H](Cc1ccccc1)NC(=O)OCc1ccccc1)/N=C(\[O-])c1ccccc1 |  | 0.5 µM
CC1(C)CC[C@]2(C(=O)O)CC[C@]3(C)C(=CC[C@@H]4[C@@]5(C)CC/C(=N\O)C(C)(C)[C@@H]5CC[C@]43C)[C@@H]2C1 |  | 5.5 µM
NC(=NCCC[C@H](NC(=O)OCC1c2ccccc2-c2ccccc21)C(=O)O)NS(=O)(=O)c1ccccc1 |  | 25 µM
CC(C)(C)NC(=O)[C@H]1CCCN1C(=O)[C@@H](Cc1ccccc1)N(O)C(=O)[C@H](Cc1ccccc1)NC(=O)OCC1c2ccccc2-c2ccccc21 |  | 2.52 µM
CC(C)c1ccccc1Sc1c(O)cc(-c2ccc(OCc3cccnc3)cc2)oc1=O | pH 6.2 | 0.99 µM
O=C(N[C@@H](Cc1ccccc1)C(=O)NCC[C@@H](CO)NC(=O)[C@H](Cc1ccccc1)NC(=O)OCC1c2ccccc2-c2ccccc21)OCC1c2ccccc2-c2ccccc21 |  | 0.16 µM
COC(=O)[C@]12CCC(C)(C)CC1C1=CCC3[C@@]4(C)CCC(=O)C(C)(C)C4CC[C@@]3(C)[C@]1(C)CC2 |  | 20 µM
Cc1c(C)c(S(=O)(=O)NC(N)=NCCC[C@H](NC(=O)OCC2c3ccccc3-c3ccccc32)C(=O)O)c(C)c2c1OC(C)(C)CC2 |  | 30 µM
CC(C)(C)NC(=O)[C@H]1CCCN1C(=O)CN(O)C(=O)[C@H](Cc1ccccc1)NC(=O)OCC1c2ccccc2-c2ccccc21 |  | 1.33 µM
O=C1OC(C2OC(=O)c3cc(O)c(O)c(O)c3-c3c(cc(O)c(O)c3O)C(=O)OCC2O)C2OC(=O)C3C(=C(O)C(=O)C34Oc3cc(O)c5c(c3C24)OC(c2ccc(O)c(O)c2)C(O)C5)c2c1cc(O)c(O)c2O |  | 67 µM
NC(=NCCC[C@H](NC(=O)OCC1c2ccccc2-c2ccccc21)C(=O)O)NS(=O)(=O)Cc1ccccc1 |  | 370 µM
COC(=O)/C(O)=C1\C[C@@]2(C)C(C(=O)C[C@]3(C)C2C/C(=C\O)C2[C@@H]([C@@]4(C)CCCC(C)(C)O4)CC[C@]23C)C1(C)C |  | >193 µM
COC(=O)[C@H](CCCN=C(N)NS(=O)(=O)c1ccc(C)cc1)NC(=O)OCC1c2ccccc2-c2ccccc21 |  | 8 µM
CC1(C)CC[C@]2(C(=O)O)CC[C@]3(C)C(=CC[C@@H]4[C@@]5(C)CC[C@H](OC(=O)CCCCC(=O)O)C(C)(C)[C@@H]5CC[C@]43C)[C@@H]2C1 |  | 3 µM
CC(C)(C)OC(=O)N[C@@H](Cc1ccccc1)[C@@H](O)C[N+](C)(Cc1ccccc1)/N=C(\[O-])C1CC1 |  | 3 µM
COC(=O)[C@]12CCC(C)(C)CC1C1=CCC3[C@@]4(C)CC[C@H](NC(=O)CCCCC(=O)NCCCC(=O)O)C(C)(C)C4CC[C@@]3(C)[C@]1(C)CC2 |  | 6 µM
CCCN([C@H](CO)CCC[C@@H](NC(=O)[C@@H](NC(=O)OC)C(c1ccccc1)c1ccccc1)C(F)(F)F)S(=O)(=O)c1ccc(CO)cc1 |  | 0.00001 µM
CC(C)(C)OC(=O)N(C(=O)[C@@H](N)CC(N)=O)[C@@H](Cc1ccccc1)[C@@H](O)C[N+](C)(Cc1ccccc1)/N=C(\[O-])c1ccccc1 |  | 34 µM
CCOC(=O)[C@H](CCCN=C(N)NS(=O)(=O)c1ccc(C)cc1)NC(=O)OCC1c2ccccc2-c2ccccc21 |  | 12 µM
CCCN([C@H](CO)CCCC(C)NC(=O)[C@@H](NC(=O)OC)C(c1ccccc1)c1ccccc1)S(=O)(=O)c1ccc(CO)cc1 |  | 0.000014 µM

For reference, 4 entries again:

{"SMILES": "CC1(C)CC[C@]2(C(=O)O)CC[C@]3(C)C(=CC[C@@H]4[C@@]5(C)CC/C(=N\\O)C(C)(C)[C@@H]5CC[C@]43C)[C@@H]2C1", "result": "5.5 µM"}
{"SMILES": "C[N+](Cc1ccccc1)(C[C@H](O)[C@H](Cc1ccccc1)NC(=O)OCc1ccccc1)/N=C(\\[O-])c1ccccc1", "result": "0.5 µM"}
{"SMILES": "Cc1c(O)cccc1C(=O)N(O)[C@@H](Cc1ccccc1)C(=O)N1CCC[C@@H]1C(=O)NC(C)(C)C", "result": "1.02 µM"}
{"SMILES": "COC(=O)/C(O)=C1\\C[C@@]2(C)C(C(=O)C[C@]3(C)C2C/C(=C\\O)C2[C@@H]([C@@]4(C)CCCC(C)(C)O4)CC[C@]23C)C1(C)C", "result": ">193 µM"}

ICn is the concentration giving n% inhibition. Conditions beyond the fields shown may differ between rows.